Experimental data taken from article PMC3797041 (PLoS ONE, 2013).

B1: hybrid construct A3D1 (VHH)
VHH: EVQLVESGGGLVQAGDSLRLSCTASGREGTTTVGWFRQAPGKEREFVAAIRWTDSRTPHTDSRFSISADSAKNTVYLQMNSLKPEDTAVYYCAADTWNSVVTGTAADWGQGTQVTVSS
B2: hybrid antibody A3C8 (VHH)
VHH: EVQLVESGGGLVQAGDSLRLSCTASGRTLGDYGVAWFRQAPGKEREFVSVISRSTIITDYADSVRGRFSISADSAKNTVYLQMNSLKPEDTAVYYCAVIANPVYATSRNSDDYGHWGQGTQVTVSS
B3: hybrid DDA (VHH)
VHH: EVQLQASGGGLVQPGGSLRLACQYSGREGTTTVGWFRQSPGKEREFVAAIRWTDSRTPHTDSRFTTSSDNFKKTAYLQMNGLKPEDTALYYCTEDLKMQVAAYMNQRSVDYWSQGTQVTVSS
B4: hybrid DAD (VHH)
VHH: EVQLQASGGGLVQPGGSLRLACQYSGREGTTTVGWFRQSPGKEREFVAAISAAPGTAYYAFYADSVRGRFTTSSDNFKKTAYLQMNGLKPEDTALYYCTEDTWNSVVTGTAADWSQGTQVTVSS
B5: hybrid ADD (VHH)
VHH: EVQLQASGGGLVQPGGSLRLACQYSGRTFSRAVMGWFRQSPGKEREFVAAIRWTDSRTPHTDSRFTTSSDNFKKTAYLQMNGLKPEDTALYYCTEDTWNSVVTGTAADWSQGTQVTVSS
B6: hybrid construct D1A3 (VHH)
VHH: EVQLQASGGGLVQPGGSLRLACQYSGRTFSRAVMGWFRQSPGKEREFVAAISAAPGTAYYAFYADSVRGRFTTSSDNFKKTAYLQMNGLKPEDTALYYCTEDLKMQVAAYMNQRSVDYWSQGTQVTVSS
B7: hybrid antibody C8A3 (VHH)
VHH: EVQLQASGGGLVQGGDSLRLSCAASGRTFSRAVMGWFRQAPGKEREFVSAISAAPGTAYYAFYADSVRGRFTISRDNAKNAVYLQMNSLKPEDTAVYYCAVDLKMQVAAYMNQRSVDYWGQGTQVTVSS
B8: hybrid AAD (VHH)
VHH: EVQLVESGGGLVQAGDSLRLSCTASGRTFSRAVMGWFRQAPGKEREFVAAISAAPGTAYYAFYADSVRGRFSISADSAKNTVYLQMNSLKPEDTAVYYCAADTWNSVVTGTAADWGQGTQVTVSS

Target: ricin
Assay: SPR

| Binder | Kd | binding result |
| --- | --- | --- |
| B1 | 9.4 nM | – |
| B2 | 0.72 nM | – |
| B3 | – | no binding |
| B4 | – | no binding |
| B5 | – | no binding |
| B6 | – | no binding |
| B7 | – | no binding |
| B8 | – | no binding |
